Compound potency records, mixed from different reports. Data source: NIAID ChemDB in PubChem.

All rows: tests in culture; organism: Mycobacterium tuberculosis

Percent inhibition refers to the dose given; in toxicity tests it is the harm to the cells. MIC50, MIC90 and the like: level of inhibition, or share of isolates inhibited. An empty or dashed field is not shown. Two numbers with a dash give a range or band. MIC bound: limit read from a one-dose screen. ECn is the concentration giving n% inhibition of infection, replication or growth. Rows are shuffled and stem from different studies.

compound | strain or isolate | endpoint | conditions | read by | dose | value
O=C(Nc1cccc(F)c1)c1cc([N+](=O)[O-])ccc1O | CNCTC MY331/88 | MIC |  |  |  | 31 µM
O=C(Nc1sc(-c2ccc(OCc3ccccc3Cl)cc2)cc1C(=O)O)c1ccc(Cl)cc1 | H37Rv | EC50 |  | resazurin |  | 84.31 µM
Cc1ccc(-n2c(SCc3ccccc3)nnc2-c2ccc(N=Cc3ccc(Cl)cc3)cc2)cc1 | H37Rv | EC50 |  |  |  | >6.25 µg/mL
Cn1cc([N+](=O)[O-])nc1C(=O)NCc1ccccn1 | H37Rv | MIC90 |  |  |  | >200 µg/mL
O=C(NN=Cc1cccs1)c1ccccc1Sc1ccccc1 | H37Rv | MIC90 |  | resazurin |  | >50 µg/mL
Cc1c[nH]c(C(=O)NN)c1-c1cc2c(-c3ccccc3)nc3ccccc3n2c1 | H37Rv | EC50 |  |  |  | <12.5 µg/mL
COc1cc(/C=C/[N+](=O)[O-])cc(Oc2ccc(CC(=O)O)cc2)c1O | H37Rv | MIC |  |  |  | 500 µg/mL
CCOC(=O)c1[nH]cc(C)c1-c1ccc2c(-c3ccccc3)nc3ccccc3n12 | H37Rv | EC50 |  |  |  | <12.5 µg/mL
Cn1cc(NC(=O)c2cc(NC(=O)c3cc(NC=O)cn3C)cn2C)cc1C(=O)NCCC(=N)N | CS-R | MIC |  |  |  | 6.4 µg/mL
COc1cc2c(cc1OC)CN(CNC(=O)c1nc([N+](=O)[O-])cn1C)CC2 | H37Rv | MIC90 |  |  |  | >200 µg/mL
CC(=O)c1c(C)[nH]c(C(=O)N/N=C/c2ccc(C)cc2)c1C | H37Rv | inhibition |  | resazurin | 6.25 µg/mL | 92%
O=C(Nc1sc(-c2ccc(OCc3c(Cl)cccc3Cl)cc2)cc1C(=O)O)c1ccccc1 | H37Rv | MIC |  | resazurin |  | 10.6 µM
Cn1c(=O)c(=O)n(C)c2cc(Cl)c(Cl)cc21 | H37Rv | inhibition |  |  | 6.25 µg/mL | 2%
O=C(Nc1ccc(Br)cc1)c1ccccc1O | CNCTC MY331/88 | MIC |  |  |  | 31 µM
O=C(Nc1sc(-c2ccc(OCc3ccc(Cl)c(Cl)c3)cc2)cc1C(=O)O)c1ccc(Cl)cc1 | H37Rv | EC50 |  | resazurin |  | 28.21 µM
Cc1nc([N+](=O)[O-])cn1-c1ccc([N+](=O)[O-])cc1 | H37Rv | MIC |  |  |  | >6.25 µg/mL
O=C(NN(C(=O)c1ccccc1)c1cccs1)c1ccccc1 | H37Rv | inhibition |  | BACTEC | 12.5 µg/mL | 1%
COc1ccc2nc(Oc3ccccc3)c(C3C(C#N)=C(N)Oc4c3c(=O)oc3ccccc43)cc2c1 | H37Rv | inhibition |  |  | 250 µg/mL | 11%
O=c1oc2ccccc2cc1-c1cs/c(=N/N=C/c2ccc(Cl)c(Cl)c2)n1C1CCCCC1 | H37Rv | EC50 |  |  |  | >6.25 µg/mL
CCn1cc(C(=O)O)c(=O)c2cc(F)c(N3CCNCC3)cc21 |  | MIC50 |  |  |  | 4 µg/mL
O=C1C(=O)c2ccccc2C(O)=C1C(C1=C(O)c2ccccc2C(=O)C1=O)c1ccc(Cl)cc1 | H37Rv | MIC bound |  | BACTEC |  | >12.8 µg/mL
O=c1oc2ccc(-c3ccccc3)cc2c(O)c1N=Nc1cccc(F)c1Cl | H37Rv | inhibition |  | resazurin | 6.25 µg/mL | 19%
C=C/C(C)=C/[C@@]1(C)SC(=O)C(C)=C1O | H37Rv | MIC90 |  |  |  | 125 µM
Cc1ccn2c(C(=O)NCc3ccc(C(=O)N4CCN(C5NC(=O)c6cc(C(F)(F)F)cc([N+](=O)[O-])c6S5)CC4)cc3)c(C)nc2c1 | H37Rv | MIC |  | resazurin |  | >10 µM
CCCNc1sc(-c2ccc(OCc3c(Cl)cccc3Cl)cc2)cc1C(=O)O | H37Rv | EC50 |  | resazurin |  | 21.31 µM
O=C(Nc1ncc([N+](=O)[O-])s1)c1ccc(F)cc1 | H37Rv | MIC90 |  |  |  | 25 µg/mL
O=c1oc2ccccc2cc1-c1cs/c(=N\N=C\c2cc([N+](=O)[O-])ccc2O)n1C1CCCCC1 | H37Rv | inhibition |  |  | 6.25 µg/mL | 24%
CN1CCN(c2c(F)cc3c(=O)c(C(=O)O)cn(CCF)c3c2F)CC1 |  | MIC90 |  |  |  | 3.13 µg/mL
COc1cccc(C(=O)Nc2sc(-c3ccc(OCc4c(Cl)cccc4Cl)cc3)cc2C(=O)O)c1 | H37Rv | MIC |  | resazurin |  | 31.2 µM
O=c1oc2ccccc2cc1-c1cs/c(=N/N=C/c2ccc(Br)cc2)n1C1CCCCC1 | H37Rv | EC50 |  |  |  | >6.25 µg/mL
COc1cc(O)c2c(O)c3c(=O)cc(C)oc3cc2c1 | H37Rv | MIC |  |  |  | >12.5 µg/mL
O=C(Nc1ccc(Cl)cc1)c1ccccc1O | CNCTC MY331/88 | MIC |  |  |  | 31 µM
COc1ccc2c(c1)[n+](=O)c(C(=O)C/C(=N/NC(=O)c1ccccc1O)C(=O)Nc1ccc(Cl)c(C(F)(F)F)c1)c(C)n2[O-] | H37Rv | inhibition |  | BACTEC | 12.5 µg/mL | 0%
Fc1ccc(C=Nc2ccc(-c3nnc(SCc4ccc(Cl)cc4Cl)n3-c3ccccc3)cc2)cc1 | H37Rv | inhibition |  |  | 6.25 µg/mL | <50%
OC[C@@H](O)[C@@H](O)[C@H](O)c1cnc(C[C@H](O)[C@H](O)CO)cn1 | H37Rv | MIC bound |  | BACTEC |  | >12.5 µg/mL
COc1ccc(CNC(=O)c2cc([N+](=O)[O-])cn2C)cc1 | H37Rv | MIC90 |  |  |  | >200 µg/mL
CC1=NN(c2ccccc2)C(=O)C1N=Nc1ccc(S(=O)(=O)Nc2nnc(C)s2)cc1 | CS-R | MIC |  |  |  | 3.1 µg/mL
CC1=C(O)C(C)(CCC(C)C)SC1=O | H37Rv | MIC90 |  |  |  | >300 µM
COc1ccc(CC2=NCCc3cc(OC)c(OC)cc32)cc1OC | H37Rv | MIC |  | BACTEC |  | ≥12.8 µg/mL
O=C(Nc1sc(-c2ccc(OCc3c(Cl)cccc3Cl)cc2)cc1C(=O)O)c1ccccc1F | H37Rv | EC50 |  | resazurin |  | 28.64 µM
Cn1c(SCc2ccc(Cl)cc2Cl)nnc1-c1ccc(N)cc1 | H37Rv | EC50 |  |  |  | >6.25 µg/mL
COc1cc(/C=C/[N+](=O)[O-])cc(Br)c1OCc1ccccc1 | H37Rv | MIC |  |  |  | 250 µg/mL
O=C(Nc1cccc([N+](=O)[O-])c1)c1cc(Br)ccc1O | CNCTC MY331/88 | MIC |  |  |  | 8 µM
COc1ccc(-n2cc([N+](=O)[O-])nc2C)cc1 | H37Rv | inhibition |  |  | 6.25 µg/mL | 0%
C=C(C)[C@H]1CC[C@@]2(C)CC[C@@]3(C)[C@@H](CC[C@H]4[C@]5(C)CC[C@@H](OC(=O)c6ccccc6)C(C)(C)[C@H]5CC[C@@]43C)[C@H]12 | H37Rv | MIC bound |  | BACTEC |  | >12.8 µg/mL
COC(=O)c1ccc(Oc2cc(C(OC(C)=O)OC(C)=O)cc(OC)c2OC)cc1 | H37Rv | MIC |  |  |  | 1000 µg/mL
O=C(Nc1ccccc1)c1cc(Cl)ccc1O | CNCTC MY331/88 | MIC |  |  |  | 31 µM
CCOC(=O)c1[nH]cc(C)c1-c1cc2c(-c3ccccc3)nc3ccccc3n2c1 | H37Rv | inhibition |  |  | 12.5 µg/mL | 97%
O=c1oc2ccc3ccccc3c2c(O)c1N=Nc1ccc([N+](=O)[O-])cc1 | H37Rv | MIC |  | resazurin |  | <6.25 µg/mL
CCOC(=O)N1CCN(C(=S)N/N=C(\C)c2cnccn2)CC1 | H37Rv | inhibition |  | BACTEC | 12.5 µg/mL | 15%
CC1=C(O)C(C)(Cc2cccc(C(=O)c3ccccc3)c2)SC1=O | H37Rv | MIC90 |  |  |  | 128 µM
Cc1ccc(-n2c(SCc3ccc(Cl)cc3Cl)nnc2-c2ccc(N=Cc3ccc(Cl)cc3)cc2)cc1 | H37Rv | inhibition |  |  | 6.25 µg/mL | <50%
Cc1cc(O)c2c(c1)C(=O)C(c1c(C)cc3c(c1O)C(=O)C=CC3=O)=CC2=O | Isoniazid/rifampicin-resistant | MIC |  |  |  | 0.1 µg/mL
Nc1ccc(-c2nnc(SCc3ccccc3)n2-c2ccccc2)cc1 | H37Rv | inhibition |  |  | 6.25 µg/mL | <50%
CC12CCC(O1)C1C(=O)N(CC[N+](C)(C)C)C(=O)C12 | H37Rv | inhibition |  | BACTEC | 12.5 µg/mL | -3%
O=C(Nc1ccc(Cl)c(Cl)c1)c1cc(F)ccc1O | CNCTC MY331/88 | MIC |  |  |  | 4 µM
O=c1oc2ccccc2cc1-c1cs/c(=N/N=C/c2ccc(F)cc2)n1C1CCCCC1 | H37Rv | EC50 |  |  |  | >6.25 µg/mL
CCCCCCCCCCCOC[n+]1cccc(NCn2nnc3ccccc32)c1 | H37Rv | MIC |  |  |  | <6.25 µg/mL
O=[N+]([O-])c1cnc(N(CCO)CCO)s1 | H37Rv | MIC bound |  | resazurin |  | >6.25 µg/mL
CC(C)=CCC/C(C)=C/CC1(C)C(=O)SC(C)C1=O | H37Rv | MIC |  |  |  | 60 µM
Cc1ccc2nc(Oc3ccc(Cl)cc3)c(C3C(C#N)=C(N)Oc4c3c(=O)oc3ccc(C)cc43)cc2c1 | H37Rv | inhibition |  |  | 250 µg/mL | 38%
COc1ccccc1C(=O)Nc1sc(-c2ccc(OCc3c(Cl)cccc3Cl)cc2)cc1C(=O)O | H37Rv | EC50 |  | resazurin |  | 50.66 µM
CC(C)=CCC/C(C)=C/CC/C(C)=C/CC1(C)SC(=O)C(C)=C1O | H37Rv | MIC90 |  |  |  | 29 µM
CCN=c1cc2n(-c3ccc(C(F)(F)F)cc3)c3ccccc3nc-2cc1Nc1ccc(C(F)(F)F)cc1 | 2218 | MIC | multidrug-resistant |  |  | ≤0.06 µg/mL
CCCCCCCCCCCOC[n+]1cccc(NCn2cnc3ccccc32)c1 | H37Rv | MIC |  |  |  | <6.25 µg/mL
Cn1c(SCc2ccc(Cl)cc2Cl)nnc1-c1ccc(N=Cc2c(Cl)cccc2Cl)cc1 | H37Rv | inhibition |  |  | 6.25 µg/mL | <50%
CCOC(=O)CON=c1c2ccccc2ccc2ccccc12 | H37Rv | MIC bound |  | BACTEC |  | >12.5 µg/mL
C=C(C)CC[C@H]1CN(c2ccn(N3CCOCC3)c2)C(=O)O1 | ATCC 35820 (streptomycin-resistant) | MIC50 |  |  |  | >100 µM
CCN(CC)/C(N)=N/C(N)=Nc1ccc(Cl)cc1 | H37Rv | MIC bound |  | resazurin |  | >6.25 µg/mL
O=c1oc2ccc(Br)cc2cc1-c1cs/c(=N/N=C/c2ccc(Cl)c(Cl)c2)n1C1CCCCC1 | H37Rv | EC50 |  |  |  | >6.25 µg/mL
COc1ccc(C(=O)Nc2sc(-c3ccc(OCc4c(Cl)cccc4Cl)cc3)cc2C(=O)O)cc1 | H37Rv | EC50 |  | resazurin |  | >128 µM
O=C1N(Cl)C(=O)C(c2ccc(C(F)(F)F)cc2)(c2ccc(C(F)(F)F)cc2)N1Cl | H37Rv | inhibition |  | BACTEC | 12.5 µg/mL | 26%
Cc1cccc(N=Nc2c(O)c3cccc([N+](=O)[O-])c3[nH]c2=O)c1 | H37Rv | inhibition |  | resazurin | 6.25 µg/mL | 95%
CO[C@H]1/C=C/O[C@@]2(C)Oc3c(C)c(O)c4c(O)c(c(/C=N/N5CCN(C6CCCC6)CC5)c(O)c4c3C2=O)NC(=O)/C(C)=C\C=C\[C@H](C)[C@H](O)[C@@H](C)[C@@H](O)[C@@H](C)[C@H](OC(C)=O)[C@@H]1C | 1030 | MIC |  |  |  | 0.02 µg/mL
CCC(C)C1NC(=O)C(CC(C)C)NC(=O)C(C(C)C)NC(=O)C2CSSCC(NC1=O)C(=O)N2 | H37Rv | inhibition |  | BACTEC | 12.5 µg/mL | 2%
Cn1c([N+](=O)[O-])cnc1C=NNC(=O)c1ccccc1Sc1ccccc1 | H37Rv | MIC90 |  | resazurin |  | >50 µg/mL
O=[N+]([O-])c1ccc(-n2cnc([N+](=O)[O-])n2)cc1 | H37Rv | inhibition |  |  | 6.25 µg/mL | 7%
COc1ccc(CC(=O)c2c(OC)c3c(c4c2OC(C)(C)CC4)OC(C)(C)CC3)cc1OC | H37Rv | inhibition |  | BACTEC | 12.5 µg/mL | 44%
O=C(NN=Cc1ccc([N+](=O)[O-])cc1)c1ccccc1Sc1ccccc1 | H37Rv | MIC90 |  | resazurin |  | >50 µg/mL
COc1cc(C(Br)C[N+](=O)[O-])cc(Br)c1O | H37Rv | MIC |  |  |  | 62.5 µg/mL
NC(=S)NNC(=O)CN1C(=O)c2ccccc2C1=O | H37Rv | inhibition |  | BACTEC | 12.5 µg/mL | 5%
N#CC1=C(N)Oc2c(c(=O)oc3ccccc23)C1c1cc2ccccc2nc1Oc1ccc(Cl)cc1 | H37Rv | inhibition |  |  | 250 µg/mL | 32%
C=CCn1c(SCc2ccccc2)nnc1-c1ccc(N)cc1 | H37Rv | inhibition |  |  | 6.25 µg/mL | <50%
CCCCCCCCCCCCCCCCCc1nc2nc(Cl)c(Cl)nc2[nH]1 | H37Rv | inhibition |  | BACTEC | 6.25 µg/mL | 0%
COC(=O)c1cc(OC)c(OC)c(Oc2ccc(C(=O)OC)c([N+](=O)[O-])c2)c1 | H37Rv | MIC |  |  |  | 250–1000 µg/mL

For reference, 6 entries again:

compound | strain or isolate | endpoint | conditions | read by | dose | value
O=C(Nc1ccc(Cl)cc1)c1ccccc1O | CNCTC MY331/88 | MIC |  |  |  | 31 µM
O=C(Nc1ccc(Br)cc1)c1ccccc1O | CNCTC MY331/88 | MIC |  |  |  | 31 µM
COc1cc(/C=C/[N+](=O)[O-])cc(Oc2ccc(CC(=O)O)cc2)c1O | H37Rv | MIC |  |  |  | 500 µg/mL
COc1cccc(C(=O)Nc2sc(-c3ccc(OCc4c(Cl)cccc4Cl)cc3)cc2C(=O)O)c1 | H37Rv | MIC |  | resazurin |  | 31.2 µM
CCCNc1sc(-c2ccc(OCc3c(Cl)cccc3Cl)cc2)cc1C(=O)O | H37Rv | EC50 |  | resazurin |  | 21.31 µM
CCOC(=O)c1[nH]cc(C)c1-c1cc2c(-c3ccccc3)nc3ccccc3n2c1 | H37Rv | inhibition |  |  | 12.5 µg/mL | 97%